Results of unrelated studies side by side (data: NIAID ChemDB).

Shared fields: cytotoxicity tests; measure: CC50

Two numbers with a dash give a range or band. Conditions beyond the fields shown may differ between rows. CCn is the concentration with n% toxicity to the cells. Blank or dashed fields: not listed here.

smiles | cells | read by | value
CCOC(=O)CCCCCOc1cccc(CN(C(=O)c2ccc(-c3ccc4cc[nH]c4c3)cc2)C(C)C)c1 | BJ | - | >20 µM
COc1cc2c(cc1[C@H](C)Nc1ccccc1)C=CC(C)(C)O2 | L6 rat skeletal myoblasts | - | 16.2 µM
Cc1nc(C)c(-c2n[nH]c(=S)n2C23CC4CC(CC(C4)C2)C3)s1 | KBALB | MTT | >100 µM
CC(C)CCN([C@@H](CCCCNC(=O)[C@@H](N)C(c1ccccc1)c1ccccc1)C(C)O)S(=O)(=O)c1ccc(N)cc1 | T lymphoid cells | microscopy | >10 µM
CN(C)C(=O)CN1CC[C@@H](N2CC(=O)N3[C@H](c4ccc5c(c4)OCO5)c4[nH]c5ccccc5c4C[C@@H]3C2=O)C1 | MRC-5 SV2 | resazurin | >64 µM
COC(=O)C1=CN[C@@H]2OC[C@]3(O)C=C[C@H]1[C@H]23 | L6 rat skeletal myoblasts | resazurin | 50.3 µg/mL
CCOC(=O)c1cc2ccccc2oc1=O | HTLV-I-bearing MT-4 | MTT | 439.9 µg/mL
C[C@H](Nc1ccccc1)c1cc2c(cc1O)OC(C)(C)C=C2 | L6 rat skeletal myoblasts | - | 179 µM
O=Cc1coc2ccc([N+](=O)[O-])cc2c1=O | HTLV-I-bearing MT-4 | MTT | 35.4 µg/mL
Cc1csc(CCCCCCCOc2cc(C)c3ccccc3n2)n1 | WIS HELA | crystal violet | 25 µg/mL
COc1cc2c(cc1[C@H](C)N(C)c1ccccc1)C=CC(C)(C)O2 | L6 rat skeletal myoblasts | - | 45.4 µM
CC(C)c1cc2c(o1)C(=O)c1ccccc1C2=O | 2C4 fibroblasts | - | 1 µg/mL
N#Cc1cc(-c2ccccc2)n(Cc2nc3ccccc3[nH]2)c1N | MCF-7 breast cancer cells | sulforhodamine | 0.515 µg/mL
C=CCSc1n[nH]c(-c2cccc([N+](=O)[O-])c2C)n1 | Panc-1 | - | >100 µg/mL
Cc1cc(C=O)cc(C)c1Oc1cc(Nc2ccc(C#N)cc2)nc2ccccc12 | H69AR | MTT | 27.6 µM
CCCN([C@H](CO)CCC[C@@H](NC(=O)[C@@H](NC(=O)OC)C(c1ccccc1)c1ccccc1)C(F)(F)F)S(=O)(=O)c1ccc(N)cc1 | T lymphoid cells | microscopy | >10 µM
Cc1nnsc1C(=O)NNC(=S)Nc1ccc2ccccc2c1 | 143B | MTT | >100 µM
COc1cc2c(cc1C(C)Nc1ccccc1)C=CC(C)(C)O2 | L6 rat skeletal myoblasts | - | 21 µM
C=CCSc1n[nH]c(-c2ccco2)n1 | Panc-1 | - | >100 µg/mL
O=c1[nH]c(=S)n([C@H]2C[C@H](O)[C@@H](CO)O2)cc1Br | RPMI8226 | - | 273 µM
COC(=O)N[C@H](C(=O)NCCC(C)C[C@@H](CO)N(CCC(C)C)S(=O)(=O)c1ccc(C)cc1)C(c1ccccc1)c1ccccc1 | T lymphoid cells | microscopy | >10 µM
CCCCN1C(c2sc(C)nc2C)=NNC1SCc1ccc(OC)cc1 | KBALB | MTT | >100 µM
CC(C)=CCC1=C(O)c2ccccc2C(=O)C1=O | 2C4 fibroblasts | - | 10 µg/mL
CCOC(=O)c1cc(C(=O)O)c(=O)n2c1[nH]c1ccccc12 | HEF | - | 25 µg/mL
Nc1nc(=S)n([C@@H]2O[C@H](CO)[C@@H](O)[C@@H]2O)cc1I | RPMI8226 | - | 96.2 µM
COc1ccc(CSC2NN=C(c3sc(C)nc3C)N2C23CC4CC(CC(C4)C2)C3)cc1 | 143B | MTT | >100 µM
Cc1cn([C@H]2C[C@H](N=[N+]=[N-])[C@@H](CO)O2)c(=O)[nH]c1=O | MAGI | MTT | >100 µg/mL
CCOC(=O)COc1ccc(CN(C(=O)c2ccc(-c3ccc4c(c3)OCO4)cc2)C(C)C)cc1 | HepG2 | - | >20 µM
CC(C)Nc1nc2cc(Cl)c(Cl)cc2n1[C@H]1O[C@@H](CO)[C@H](O)[C@@H]1O | CBL | - | 70 µM
O=C(Cc1cnc2[nH]c3ccccc3n2c1=O)c1ccccc1 | HEP-2 | - | 8 µg/mL
C#CCSc1n[nH]c(-c2ccco2)n1 | Panc-1 | - | >100 µg/mL
CCCCN1C(c2sc(C)nc2C)=NNC1SCc1ccc(C(F)(F)F)cc1 | KBALB | MTT | >100 µM
Nc1ccn(C[C@@H](CO)OCP(=O)(O)O)c(=O)n1 | CBL | neutral red | >159 µM
Nc1c(-c2nc3ccccc3[nH]2)cc(-c2ccccc2)n1-c1ccccn1 | MCF-7 breast cancer cells | sulforhodamine | 0.934 µg/mL
COC(=O)N[C@H](C(=O)N[C@H](CCC[C@@H](CO)N(CCC(C)C)S(=O)(=O)c1ccc(N)cc1)C1CC1)C(c1ccccc1)c1ccccc1 | T lymphoid cells | microscopy | >10 µM
Cc1cnsc1CCCCCCOc1cccc2ccccc12 | WIS HELA | crystal violet | >50 µg/mL
O=C1[C@H]2Cc3c([nH]c4ccccc34)[C@@H](c3ccc4c(c3)OCO4)N2C(=O)CN1[C@@H]1CCN(CC2CCCCC2)C1 | MRC-5 SV2 | resazurin | 6.6 µM
CO/C=C1\C[C@H](/C=C/c2ccccc2)OC1=O | HeLa S3 | - | >50 µg/mL
CCCNCc1ccc(OCC(=O)OCC)cc1 | HepG2 | - | >20 µM
O=C(NCc1cccs1)c1nn2c(c1Cl)N[C@H](c1ccco1)C[C@@H]2C(F)(F)F | Caco2 | ATP | >100 µM
O=Cc1coc2c(Cl)cc(Cl)cc2c1=O | HTLV-I-bearing MT-4 | MTT | 87.8 µg/mL
Cn1cc(C(=O)O)c(=O)c2cc(N)c(N3CCN(c4nccs4)CC3)cc21 | C3H/3T3 | - | 2.8 µg/mL
CC(C)c1cc2c(o1)-c1ccccc1C(=O)C2=O | 2C4 fibroblasts | - | 0.01 µg/mL
CC[C@@H]1/C=C(\C)C[C@H](C)C[C@H](OC)[C@H]2O[C@@](O)(C(=O)C(=O)N3CCCC[C@H]3C(=O)O[C@H](/C(C)=C/[C@H]3CC[C@H](O)[C@H](OC)C3)[C@H](C)[C@@H](O)CC1=O)[C@H](C)C[C@@H]2OC | COS 1 | - | 54 µg/mL
Cc1cc2occ(C=O)c(=O)c2cc1Cl | HTLV-I-bearing MT-4 | MTT | 19.2 µg/mL
CO/C=C(/C(=O)OC)[C@H](C)[C@@H](O)/C=C/c1ccccc1 | BHK | - | 50 µg/mL
Cc1cc(OCCCCCCc2sncc2C)c2ccccc2n1 | WIS HELA | crystal violet | 10 µg/mL
C=C(C)[C@@H]1CCC2(C(=O)NCCC(=O)OCC)CC[C@]3(C)C(CCC4[C@@](C)(CC#N)C(C(C)(C)C(=O)NCCC(=O)OCC)CC[C@]43C)C12 | MS | MTT | >100 µM
Nc1ccn([C@@H]2O[C@H](CO)[C@@H](CO)[C@@H]2F)c(=O)n1 | PBM | - | ≥100 µM
COc1cc2c(cc1[C@H](C)NS(=O)C(C)(C)C)C=CC(C)(C)O2 | L6 rat skeletal myoblasts | - | 99.1 µM
CC1(C)CCC2=C(O1)c1ccccc1C(=O)C2=O | 293.27.2 | - | 0.3 µM
Nc1c(-c2nc3ccccc3[nH]2)cc(-c2ccccc2)n1-c1ccc(Br)cc1 | MCF-7 breast cancer cells | sulforhodamine | 2.12 µg/mL
COC(=O)N[C@H](C(=O)NCCCC[C@@H](CN)N(CCC(C)C)S(=O)(=O)c1ccc(N)cc1)C(c1ccccc1)c1ccccc1 | T lymphoid cells | microscopy | >10 µM
Cc1cc(CCCCCCCOC2c3ccccc3-c3ccccc32)on1 | WIS HELA | crystal violet | >50 µg/mL
Nc1cc2c(=O)c(C(=O)O)cn(C3CC3)c2cc1N1CCN(c2nc3ccccc3s2)CC1 | C3H/3T3 | - | 0.12 µg/mL
CCOC(=O)c1cc(NC(=O)c2ccccc2)c(=O)n2c1[nH]c1ccccc12 | HEF | - | 40 µg/mL
CCOC(=O)C1=C(CN2CCOCC2)NC(C2=NC=CC2)=NC1c1ccc(F)cc1Br | HepAD38 | MTT | 26 µM
O=c1nc2c(nc3ccccc13)N(Cc1nc3ccccc3[nH]1)c1ccccc1N2 | MCF-7 breast cancer cells | sulforhodamine | 1.66 µg/mL
Nc1nc(=S)n([C@H]2C[C@H](O)[C@@H](CO)O2)cc1Cl | RPMI8226 | - | 334 µM
Cc1cc(CCCCCCCOc2cc(C)c3ccccc3n2)on1 | WIS HELA | crystal violet | 50 µg/mL
COC(=O)N[C@H](C(=O)N[C@H](C)CCC[C@@H](CO)N(CCC(C)C)S(=O)(=O)c1ccc(N)cc1)C(c1ccccc1)c1ccccc1 | T lymphoid cells | microscopy | >10 µM
O=C1[C@H]2Cc3c([nH]c4ccccc34)[C@@H](c3ccc4c(c3)OCO4)N2C(=O)CN1[C@@H]1CCN(CCc2ccccc2)C1 | MRC-5 SV2 | resazurin | 8.1 µM
O=c1ccoc2ccccc12 | HTLV-I-bearing MT-4 | MTT | 146.2 µg/mL
CCOC(=O)CCCCCOc1cccc(CN(C(=O)c2ccc(-c3cccc(Oc4ccccc4)c3)cc2)C(C)C)c1 | HEK 293 | - | 13.5–20 µM
COc1ccc(C2C3=C(CC(C)(C)CC3=O)Nc3ccccc3N2C(C)=O)cc1OCc1ccccc1 | Huh7-CMV-Luc | - | >32 µM
C#CCSc1n[nH]c(-c2cccc([N+](=O)[O-])c2C)n1 | THP-1 | - | >100 µg/mL
CCCCN1CC[C@@H](N2CC(=O)N3[C@H](c4ccc5c(c4)OCO5)c4[nH]c5ccccc5c4C[C@@H]3C2=O)C1 | MRC-5 SV2 | resazurin | 8 µM
Nc1nc(=S)n([C@@H]2O[C@H](CO)[C@@H](O)[C@@H]2O)cc1Br | RPMI8226 | - | >296 µM
CCc1cc2c(o1)C(=O)c1ccccc1C2=O | 2C4 fibroblasts | - | 10 µg/mL
NC(=O)CCNC(=O)c1ccccc1SCc1ccc(OP2(=O)OCc3ccccc3O2)cc1 | Macrophage | XTT | >50 µM
Nc1c(-c2nc3ccccc3[nH]2)cc(-c2ccccc2)n1-c1cccc(Cl)c1 | MCF-7 breast cancer cells | sulforhodamine | 1.7 µg/mL
CSC1NN=C(c2sc(C)nc2C)N1C1C2CC3CC(C2)CC1C3 | 143B | MTT | <100 µM
OC[C@H]1O[C@@H](n2c(Br)nc3cc(Cl)c(Cl)cc32)[C@H](O)[C@@H]1O | CBL | - | >87 µM
CC(C)c1ccc2occ(C=O)c(=O)c2c1 | HTLV-I-bearing MT-4 | MTT | 10.6 µg/mL
Cn1cc(C(=O)O)c(=O)c2cc(N)c(N3CCN(c4cccc(C(F)(F)F)c4)CC3)cc21 | C3H/3T3 | - | 0.67 µg/mL
O=Cc1coc2ccc(F)cc2c1=O | HTLV-I-bearing MT-4 | MTT | 17 µg/mL
CC[C@@H](CCC[C@@H](CO)N(CCC(C)C)S(=O)(=O)c1ccc(CO)cc1)NC(=O)[C@@H](NC)C(c1ccccc1)c1ccccc1 | T lymphoid cells | microscopy | >10 µM
Cc1cc(OCCCc2ccns2)c2ccccc2n1 | WIS HELA | crystal violet | 50 µg/mL
CC(C)[C@@H]1NC(=O)[C@@H](C(C)C)OC(=O)[C@H](C(C)C)N(C)C(=O)[C@@H](C(C)C)OC(=O)[C@H](C(C)C)N(C)C(=O)[C@@H](C(C)C)OC1=O | NCI-H187 | absorbance | 1.94 µM
O=c1[nH]c(=S)n([C@H]2C[C@H](O)[C@@H](CO)O2)cc1Cl | RPMI8226 | - | 297 µM
Nc1c(-c2nc3ccccc3[nH]2)cc(-c2ccccc2)n1-c1nc2ccccc2[nH]1 | MCF-7 breast cancer cells | sulforhodamine | 1.62 µg/mL
CCOC(=O)CCCCCOc1cccc(CN(C(=O)c2ccc(-c3cccc(C(F)(F)F)c3)cc2)C(C)C)c1 | BJ | - | <7.5 µM
Cc1ccc2occ(C=O)c(=O)c2c1 | HTLV-I-bearing MT-4 | MTT | 39.8 µg/mL
CCOC(=O)CCCCCOc1cccc(CN(C(=O)c2ccc(-c3ccc(C(C)=O)s3)cc2)C(C)C)c1 | RAJI | - | >20 µM
O=C1C(=O)c2ccccc2C(O)=C1/C=C/c1ccccc1 | 2C4 fibroblasts | - | >50 µg/mL
CCOC(=O)c1cnc2ccc3c(C)cc(=O)[nH]c3c2c1C | CAKI-1 | - | 11 µg/mL
CCCCSc1n[nH]c(-c2ccc([N+](=O)[O-])c(C)c2)n1 | THP-1 | - | 65.68 µg/mL

A second listing of 7 rows from above:

| smiles | cells | read by | value |
|---|---|---|---|
| OC[C@H]1O[C@@H](n2c(Br)nc3cc(Cl)c(Cl)cc32)[C@H](O)[C@@H]1O | CBL | - | >87 µM |
| CO/C=C1\C[C@H](/C=C/c2ccccc2)OC1=O | HeLa S3 | - | >50 µg/mL |
| Cn1cc(C(=O)O)c(=O)c2cc(N)c(N3CCN(c4cccc(C(F)(F)F)c4)CC3)cc21 | C3H/3T3 | - | 0.67 µg/mL |
| COc1cc2c(cc1C(C)Nc1ccccc1)C=CC(C)(C)O2 | L6 rat skeletal myoblasts | - | 21 µM |
| Cc1cc(CCCCCCCOc2cc(C)c3ccccc3n2)on1 | WIS HELA | crystal violet | 50 µg/mL |
| CCCCN1C(c2sc(C)nc2C)=NNC1SCc1ccc(OC)cc1 | KBALB | MTT | >100 µM |
| O=Cc1coc2c(Cl)cc(Cl)cc2c1=O | HTLV-I-bearing MT-4 | MTT | 87.8 µg/mL |